Experimental data published in article PMC8346205.

Test system: NC(=O)CC[C@H](N)C(=O)O
Test: purified protein
Conditions: Fe2+, alpha-ketoglutarate, O2; C4 hydroxylation

Q4Ox (Fusarium graminearum PH-1)
Km: 990 ± 30 µM | kcat: 4.17 ± 0.0433 s⁻¹
